Results deposited as PubChem BioAssay AID1224833 (University of Georgia, 2016).
Test: 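Human genes whose knock-down alters rotavirus replication in monkey cells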 (primary screen). System: monkey MA104 kidney cells. Reagents: siRNA pool against human genes, 50 nM. Timing: 48 h knock-down before infection; read 24 h after infection. Treatment: infection with rotavirus strain RV3 two days after transfection; infectious dose for this stage not given. Read-out: 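Rotavirus antigen per well by fluorescent immunoassay, normalised to non-targeting control wells on each plate and given as a standard z-score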. Direction: z-score vs non-targeting control: higher = more rotavirus replication than with non-targeting control. Hit rule: In these data the active calls have z-score vs non-targeting control at about -1 or lower, or at about 1 or higher. Meaning of the calls: active = z-score beyond 1 either way; inactive = z-score within 1 of zero.
The deposit covers about 12,000 reagents; shown is an unselected part. About 5,600 of them (46%) count as active. 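Active calls cover z-scores past 1 in both directions, so they include lowered as well as raised rotavirus replication.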 Entries without a mark were called inactive. No sequences are given here.

PSG5 [SID329574969] showed z-score vs non-targeting control -0.3.
Silencing of ANKHD1-EIF4EBP3 [SID329584533] gave: z-score vs non-targeting control -1.47 (active).
Knock-down of RPS10 [SID329575192] resulted in: z-score vs non-targeting control 1.8 (active).
ZNF14 [SID329575856] scored z-score vs non-targeting control -0.0431.
TLX1 [SID329574008] showed z-score vs non-targeting control -0.914.
Against OR4C12 [SID329583812], the values are z-score vs non-targeting control -1.5 (active).
For ZAN [SID329575804] the deposit lists z-score vs non-targeting control 0.608.
FOSL2 [SID329573684] scored z-score vs non-targeting control 0.911.
With knock-down of EVPL [SID329573581] the results were z-score vs non-targeting control -0.49.
After knock-down of KLHL5 [SID329578896], the record shows z-score vs non-targeting control -1.5 (active).
Depletion of TGFB1I1 [SID329575624] came out at: z-score vs non-targeting control -1.59 (active).
Silencing of SIPA1L1 [SID329578285] resulted in: z-score vs non-targeting control -0.718.
Silencing of DNAJB7 [SID329583015] came out at: z-score vs non-targeting control -1.29 (active).
For TARS3 [SID329582465], the values are z-score vs non-targeting control -0.727.
Knock-down of ARHGAP28 [SID329581028] gave: z-score vs non-targeting control 0.0047.
With knock-down of IDH1 [SID329574085] the results were z-score vs non-targeting control 1.02 (active).
Silencing of PORCN [SID329580698] gave: z-score vs non-targeting control 1.16 (active).
With knock-down of TYMP [SID329573474] the results were z-score vs non-targeting control -0.87.
After knock-down of HSP90AA1 [SID329574062] the results were z-score vs non-targeting control -1.35 (active).

Single entries from the list:
For “z-score vs non-targeting control”, FOSL2 [SID329573684] is entered as 0.911
Under “z-score vs non-targeting control”, TGFB1I1 [SID329575624] shows -1.59 (active)
